# Measured values taken from PMC5319851 (Bioorganic & medicinal chemistry, 2016).
# Test system: primary pulmonary vascular endothelial cells (ECs)
smiles,measurement,value
"Oc1ccc(Cl)c2cccnc12 [Compound 22, 5-chloro-8-quinolinol]",Host EC metabolism (WST-1) of uninfected ECs,stimulated EC metabolism
